This note sets out measurements from publication PMC7251119 (Nature Communications, 2020).

The target in assay [1] is (His)10-MBP-DotL(656-783)–IcmSW–LvgA(I153E) (Legionella pneumophila, UniProt Q5ZYC6;Q5ZYD0;Q5ZS31;Q5ZY48, I153E). As to the kind of experiment: BLI. A general note: BLI is a label-free optical method that tracks binding on a fibre tip over time.
The target in assay [2] is T1, (His)10-MBP-DotL(656-783)–IcmSW–LvgA (Legionella pneumophila, UniProt Q5ZYC6;Q5ZYD0;Q5ZS31;Q5ZY48).
T1 construct: copies: + + +
Description: BLI.

Where a chain is given by its changes, count along the chain named. In names and notes the source's numbering stands.

B1: SidH(1830-2200) (domain or fragment)
chain: DSIPKENTVEFLKKMQEETRSSLKSLESNDALINIYDVLNSLKETIENGSDLPEIKKDKLQMISDVQNILSNFDKNPAERLNLAVQILNDSNPEVLSKTKGNFLIGEAFKGQVFTNYINTKISEQLNNELGPYGKVFLKQIMPDFIAKKSEIIKEIAIDNMETGLETQFKIHAPAIFEKNKELKAAYEQLNVHLKEVQSLIEAEEKKPKGNPCREEKIAALRSHQSQLMNTQRIPDHETLRFLQEQNKSAKSFMGKLEKYDTMISVYDSLTEIREHVSNHKSLSKEIKDEKIQEISKMEDMLKTTSKEPSIRLAEVKAHGLSDQCKNVLLKNSDNFLVSFFKTLFSKLFNIKNENETLVSSFKQRLQNIKG
Take B1: the “fold increase of KD against the wild-type complex” value in assay [1] was roughly 11 fold.

B2: SidH(1830-2200;K2199A) (domain or fragment)
chain: B1 chain with K370A
For the molecule B2, the “fold increase of KD against SidH(1830-2200)” value in assay [2] is no less than 4 fold.

B3: SidH(1830-2200;F2191A) (domain or fragment)
chain: B1 chain with F362A
For B3, the “fold increase of KD against SidH(1830-2200)” value in assay [2] was no less than 25 fold.

B4: SidH(1830-2200;L2195A) (domain or fragment)
chain: B1 chain with L366A
Take B4: the “fold increase of KD against SidH(1830-2200)” value in assay [2] was no less than 24 fold.
